# Measured values taken from the supplement of paper PMC9931576.
# Human monoclonal antibodies against the spike receptor-binding domain (heavy:light variable regions). IC50 against pseudoviruses bearing the spike of naturally observed variants; lower = stronger; >10 µg/ml means not reached at the top dose. No active / inactive call. The stated detection limit is 0.0005 µg/ml; values near or below 0.001 µg/ml lie at the floor of the assay.
# B1: BD55-6232 (protein)
# chain 1: EVQLVESGGGLVKPGRSLRLSCTGSGFTFGDYSLSWFRQAPGKGLEWVGFIRNPAYGGTTEYAPSVQGRVTISRDDSNSVAYLQMNSLNTEDTAVYYCTREGIYGYFYYYAMDVWGQGTTVTVSS
# chain 2: DIQMTQSPSSLSASVGDRVTITCRASQSISFYVNWYQQKPGKAPKILMYEVSSLQSGVPSRFSGSGSGTDFTLTISSLQPEDFATYYCQQSYSIPLTFGGGTKVEI
# B2: BD55-6243 (protein)
# chain 1: EVQLLESGGGLVQPGGSLRLSCAASGFTFSDYAMSWVRQPPGKGLEWVSTISGSGASTYYIDSVKGRFTISRDSSKNTLYLQLNSLRAEDTAVYFCAKEMAFYDILTDSNWFDPWGQGTLVTVSS
# chain 2: SYELTQPPSVSVSPGQTARITCSGDALPKKYTYWYQQKSGQAPVLVIYEDTKRPSGIPERFSGSTSGTMATLTIRGAQVEDEADYYCYSTDSSSYHRRVFGGGTKLTVL
# B3: BD55-6223 (protein)
# chain 1: EEHLVESGGGLVRPGGSLRLSCAASGFTFSHYAMHWVRQAPGKGLEYVSSISSDGGLTFYANSVKGRFTISRDNSKNTLYLQMGSLRGEDMALYYCARETRDHIVVVLDFWGQGTLVTVSS
# chain 2: DIQMTQSPSSLSASVGDRVSITCRASQSISRYLNWYQQKPGKAPILLIFAASSLQRGVPSRFSGSGSGTDFTLTISSLQPEDFATYYCQQSYINPEYTFGQGTKLEIK
# B4: BD55-6255 (protein)
# chain 1: QVTLKESGPVLVKPTETLTLTCTVSGFSLSNAKMGVSWIRQPPGKALEWLVNTFSDDEFSYNPSLTSRLTVSRDTSKSQVVLTMTNVDPVDTATYYCARIVGYYYYYMDVWGKGTAVTVSS
# chain 2: DIQMTQSPSSLSASVGDRVTLTCRASQNIGNYLNWYQHIPGKAPKLLIYAASSLQSGVPSRFSGSGSGTDFTLTISSLQPEDFSTYYCQQSYTTPTWTFGPGTKVEVK
# B5: BD55-6222 (protein)
# chain 1: EVQLVASGGGLVQPGGSLRLSCAASGFKFTAYDMHWVRQATGKGLEWVASIDTAGDTYYADSVRGRFTISRENAKNSFYLQMKSLRAGDTAVYYCARDYPWHDLLAGESSSFGMDVWGQGITVTVSS
# chain 2: EIVLTQSPATLSLSPGEGATLSCRASQSVRGSLIWYQQRPGQAPRLLIYDASNRATGIPARFSGSGSGTDFTLTISSLEPEDFAVYFCQQRSNWPLTFGQGTKVEIK
# B6: BD55-6250 (protein)
# chain 1: QVQLVESGGGVVQPGRSLRLSCAASGFTFSTYGMHWVRQAPGKGLEWVALIWNDGSKTYYIDSVKGRFTISRDNSKNTVYLQMNSLRAEDTAVYYCARDSLCSGGSCYFDYNWFDFWGQGTLVTVSS
# chain 2: EIVLTQSPATLSLSPGERATLSCRASQSVSRHLAWYQQKPGQAPRLLIYDASNRANGVPARFSGSGSGTDFTLTISSLEPEDFAVYYCQQRYTWPPAYTFGQGTKLQIK
# Biological target: SARS-CoV-2 Omicron BA.1 spike pseudovirus
# Experiment: pseudovirus neutralization IC50; higher = weaker neutralization
# Procedure: (§1)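 Single-round VSV luciferase pseudovirus mixed with antibody dilutions for 1 h and put on Huh-7 cells for about a day; IC50 from the dose curve.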
row,Binder,pseudovirus neutralization IC50 [µg/mL]
1,B1,> 10
2,B2,> 10
3,B3,> 10
4,B4,> 10
5,B5,> 10
6,B6,> 10

# Biological target: SARS-CoV-2 Omicron BA.2 spike pseudovirus
# Experiment: as above
# Procedure: as §1
row,Binder,pseudovirus neutralization IC50 [µg/mL]
1,B1,> 10
2,B2,> 10
3,B3,> 10
4,B4,> 10
5,B5,> 10
6,B6,> 10

# Biological target: SARS-CoV-2 Omicron BA.2.75 spike pseudovirus
# Experiment: as above
# Procedure: as §1
row,Binder,pseudovirus neutralization IC50 [µg/mL]
1,B1,> 10
2,B2,> 10
3,B3,> 10
4,B4,> 10
5,B5,> 10
6,B6,> 10

# Biological target: SARS-CoV-2 Omicron BA.5 spike pseudovirus
# Experiment: as above
# Procedure: as §1
row,Binder,pseudovirus neutralization IC50 [µg/mL]
1,B1,> 10
2,B2,> 10
3,B3,> 10
4,B4,> 10
5,B5,> 10
6,B6,> 10

# Biological target: SARS-CoV-2 Omicron BQ.1.1 spike pseudovirus
# Experiment: as above
# Procedure: as §1
row,Binder,pseudovirus neutralization IC50 [µg/mL]
1,B1,> 10
2,B2,> 10
3,B3,> 10
4,B4,> 10
5,B5,> 10
6,B6,> 10

# Biological target: SARS-CoV-2 Omicron XBB spike pseudovirus
# Experiment: as above
# Procedure: as §1
row,Binder,pseudovirus neutralization IC50 [µg/mL]
1,B1,> 10
2,B2,> 10
3,B3,> 10
4,B4,> 10
5,B5,> 10
6,B6,> 10

# Biological target: SARS-CoV-2 early D614G spike pseudovirus
# Experiment: as above
# Procedure: as §1
row,Binder,pseudovirus neutralization IC50 [µg/mL]
1,B1,> 10
2,B2,0.263
3,B3,> 10
4,B4,> 10
5,B5,0.355
6,B6,> 10
